Construct, isoform or probe ends are uncertain for at least one entry.
Target: KdgR-6xHis (Klebsiella pneumoniae ST11 isolate KP-1S) (UniProt A6TAZ8)
Assay: EMSA
Settings: not stated (EMSA done according to cited procedure, ref 41); recombinant protein; residues 1-263; probe letters rebuilt from the primers and the genome

“TTATGCGCCGTGCTTTGCCGAACCCTTATTTTTCCCCTCCCTCTTTCACTCTCCCCGGCGAAATTATTGAGCTTCGTCACGTCTTGTTGTGCCACCTTTTTTGAAACAAATAACTACGATCCTGGTCACTAAAACTATGGTGTCTAAAAAATAAAATGATGTTTCATAAAAACGAAATGTCATTTTATTTATTGTAAGGGTACCCT (double strand) [ompK26 promoter 201 bp]”: binds.

— paper PMC9040587
